A mixed list of measured activities; the numbers were collected in NIAID ChemDB.

Shared fields: growth or infection tests; agent: Mycobacterium kansasii; endpoint: MIC

An empty or dashed field is not shown.

smiles | setting | method | strain | value
O=C(Oc1cc(Cl)ccc1C(=O)Nc1ccc(F)cc1)c1ccccc1 | 21 d | broth dilution | 235/80 | 8 µM
Fc1ccc(-n2c(=S)oc3ccc(Cl)cc3c2=S)cc1 | 14 d | - | My 235/80 | 8 µM
O=C(Oc1ccc(Cl)cc1C(=O)Nc1ccc(Br)cc1)c1ccccc1 | 7 d | broth dilution | 6509/96 | 2 µM
O=C(OCc1ccccc1)N1CCC[C@H]1c1cnc(-c2ccccc2)[nH]1 | 7 d | - | My 235/80 | 32 µM
O=C(Oc1ccc(Cl)cc1C(=O)Nc1ccc(F)cc1)c1cnccn1 | 7 d | - | 6509/96 | 4 µM
Cc1ccc2oc(=O)n(-c3ccc(F)cc3)c(=S)c2c1 | 14 d | - | 6509/96 | 8 µM
O=C(Oc1cc(Cl)ccc1C(=O)Nc1ccc(Cl)cc1)c1ccccc1 | 7 d | broth dilution | 6509/96 | 2 µM
COc1ccc2oc(=O)n(-c3ccc(Cl)cc3)c(=S)c2c1 | 14 d | - | My 235/80 | 16 µM
N/C(=N\N=C\c1ccccc1O)SCc1ccc(Br)cc1 | 21 d | broth dilution | ATCC 12478 | 32 µM
COc1ccc2oc(=O)n(-c3cccc(F)c3)c(=S)c2c1 | 14 d | - | 6509/96 | 32 µM
O=C(Oc1cc(Cl)ccc1C(=O)Nc1ccc(Cl)cc1)c1cnccn1 | 21 d | - | 6509/96 | 2 µM
O=C(Nc1cccc(Cl)c1)c1ccc(Cl)cc1OS(=O)(=O)c1ccccc1 | 14 d | - | 235/80 | 16 µM
N/C(=N\N=C\c1cc(Cl)ccc1O)SCc1ccc(Cl)cc1 | 14 d | broth dilution | 6509/96 | 32 µM
O=C(Nc1ccc(F)cc1)c1cc(Cl)ccc1OS(=O)(=O)c1ccccc1 | 21 d | - | 6509/96 | 16 µM
O=C(Oc1cc(Cl)ccc1C(=O)Nc1cccc(Br)c1)c1cnccn1 | 21 d | - | 235/80 | 4 µM
O=C(Nc1ccc(Br)cc1)c1ccc(Br)cc1OS(=O)(=O)c1ccccc1 | - | - | 6509/96 | 8 µM
N/C(=N\N=C\c1cc(Br)ccc1O)SCc1ccc(Br)cc1 | 14 d | broth dilution | 6509/96 | 32 µM
S=c1oc2ccc(Br)cc2c(=S)n1-c1ccc(Cl)cc1 | 14 d | - | 6509/96 | 4 µM
O=C(Nc1cccc(Br)c1)c1ccc(Cl)cc1OS(=O)(=O)c1ccccc1 | 21 d | - | 6509/96 | 125 µM
O=C(Oc1cc(Cl)ccc1C(=O)Nc1cccc(Br)c1)c1ccccc1 | 7 d | broth dilution | 6509/96 | 2 µM
CC(C)[C@H](NC(=O)OCc1ccccc1)c1cnc(-c2ccccc2)[nH]1 | 21 d | - | My 235/80 | 62.5 µM
O=C(Nc1ccc(Br)cc1)c1cc(Cl)ccc1OS(=O)(=O)c1ccccc1 | 7 d | - | 6509/96 | 8 µM
CC[C@@H](C)[C@H](NC(=O)OCc1ccccc1)c1cnc(-c2ccc([N+](=O)[O-])cc2)[nH]1 | 14 d | - | My 235/80 | 62.5 µM
O=C(Oc1ccc(Cl)cc1C(=O)Nc1ccc(Cl)c(Cl)c1)c1cnccn1 | 14 d | - | 235/80 | 4 µM
O=C(Nc1ccc(F)cc1)c1cc(Cl)ccc1O | 21 d | broth dilution | 235/80 | 4 µM
O=C(Oc1ccc(Cl)cc1C(=O)Nc1ccc(Cl)cc1)c1cnccn1 | 21 d | - | 235/80 | 4 µM
C[C@H](NC(=O)OCc1ccccc1)c1cnc(-c2ccc([N+](=O)[O-])cc2)[nH]1 | 7 d | - | My 6509/96 | >125 µM
COc1ccc2oc(=S)n(-c3ccc(C)cc3)c(=S)c2c1 | 21 d | - | 6509/96 | 16 µM
N/C(=N\N=C\c1ccccc1)SCc1ccccc1 | 21 d | broth dilution | 6509/96 | 125 µM
CC(C)C[C@H](NC(=O)OCc1ccccc1)c1cnc(-c2ccccc2)[nH]1 | 21 d | - | My 235/80 | >500 µM
COc1ccc2oc(=O)n(-c3ccc(C)cc3)c(=S)c2c1 | 21 d | - | My 235/80 | 16 µM
C[C@H](NC(=O)OCc1ccccc1)c1cnc(-c2ccccc2)[nH]1 | 21 d | - | My 235/80 | 250 µM
O=C(Oc1cc(Cl)ccc1C(=O)Nc1ccc(C(F)(F)F)cc1)c1ccccc1 | 21 d | broth dilution | 6509/96 | 4 µM

Repeating the first 4 entries:

| smiles | setting | method | strain | value |
|---|---|---|---|---|
| O=C(Oc1cc(Cl)ccc1C(=O)Nc1ccc(F)cc1)c1ccccc1 | 21 d | broth dilution | 235/80 | 8 µM |
| Fc1ccc(-n2c(=S)oc3ccc(Cl)cc3c2=S)cc1 | 14 d | - | My 235/80 | 8 µM |
| O=C(Oc1ccc(Cl)cc1C(=O)Nc1ccc(Br)cc1)c1ccccc1 | 7 d | broth dilution | 6509/96 | 2 µM |
| O=C(OCc1ccccc1)N1CCC[C@H]1c1cnc(-c2ccccc2)[nH]1 | 7 d | - | My 235/80 | 32 µM |

Lines come from different laboratories, so protocols vary.